Pooled drug test results. Numbers come from NIAID ChemDB, via PubChem.

Common to all: tests in culture; organism: HIV-1; cell line: C8166; measure: EC50

Blank or dashed fields: not listed here. Rows are shuffled and stem from different studies. ECn is the concentration giving n% inhibition of infection, replication or growth.

SMILES	strain	mutations	method	value
CC(C)[C@H](NC(=O)c1ccc2ccccc2n1)C(=O)N[C@@H](Cc1ccccc1)[C@H](O)CN1CC[C@@H](OCc2ccncc2)C[C@H]1C(=O)NC(C)(C)C	AZTR	-	p24 / ELISA / antigen	0.015 µM
COC(=O)c1cc2c(c(OC)c1-c1ccc(N(C)C)cc1)OCO2	74V	L74V	antigen	0.44 µM
COc1ccc(C(=O)CC2(O)C(=O)Nc3ccc(Cl)cc32)cc1OC	IIIB	-	cytopathic effect / syncytia	61.91 µM
Cc1ccnc2c1NC(=O)c1cccnc1N2C1CC1	IIIB	-	cytopathic effect / MTT	0.04 µM
Cc1cccc(C)c1OCC(=O)N[C@@H](Cc1ccccc1)[C@H](O)CN1CC[C@@H](Sc2ccncc2)C[C@H]1C(=O)NC(C)(C)C	BILA1906-resistant (PR V32I A71V)	PR-V32I A71V	p24	0.008 µM
O=C(CC1(O)C(=O)Nc2ccc(Br)cc21)c1cccc(Br)c1	IIIB	-	cytopathic effect / syncytia	38.96 µM
CC(C)[C@H](NC(=O)c1ccc2ccccc2n1)C(=O)N[C@@H](Cc1ccccc1)[C@H](O)CN1CC[C@@H](SCc2cccnc2)C[C@H]1C(=O)NC(C)(C)C	IIIB	-	p24	0.001 µM
CCc1c(CC2CCCCC2)nc(SCC(=O)c2ccccc2)[nH]c1=O	NL4-3	V108I	p24 / ELISA	0.01276 µM
COc1ccccc1C(=O)CC1(O)C(=O)Nc2ccc(Cl)cc21	-	K103N	p24 / ELISA	75.33 µM
Nc1ccn([C@@H]2CO[C@H](CO)S2)c(=O)n1	HXB2	RT-M184V	p24	6 µM
Nc1ccn([C@H]2CC[C@@H](CO)O2)c(=O)n1	ROD	-	syncytia	0.05 µM
Cc1ccnc2c1NC(=O)c1cccnc1N2C1CC1	RF	-	p24	0.009 µM
Cc1cccc(C(=O)CC2(O)C(=O)Nc3ccccc32)c1	IIIB	-	cytopathic effect / syncytia	178 µM
[NH4+]	GUN1	-	antigen	>100 µg/mL
CCCCCCCCCCCCCCCCCCCCCCC(=O)O[C@@H]1[C@@H](C)[C@@]2(O)[C@@H](C=C(COC(C)=O)C[C@]3(O)C(=O)C(C)=C[C@@H]23)[C@@H]2C(C)(C)[C@]12O	74V	-	p24 / ELISA	1.828 µM
O=C(CC1(O)C(=O)Nc2ccc(Cl)cc21)c1ccccc1	IIIB	-	cytopathic effect / syncytia	8.45 µM